The supplement of paper PMC9931576
Human monoclonal antibodies against the spike receptor-binding domain (heavy:light variable regions). IC50 against pseudoviruses bearing the spike of naturally observed variants; lower = stronger; >10 µg/ml means not reached at the top dose. No active / inactive call. The stated detection limit is 0.0005 µg/ml; values near or below 0.001 µg/ml lie at the floor of the assay.

B1: BD55-5198 (protein)
chain 1: EVQLVESGGGVVKPGGSLRLSCAASGFTFSAFAMHWVRQVPGKGLEYISLISEDGYSTFYAASVTGRFTLSRDNNKKSLYLQMNSLRSEDTAFYYCAKDIGGTVAGTGADFWGQGILVTVSS
chain 2: QSVLTQPPSVSGAPGQKVTISCTGDSSNIGAGYTVHWYQQLPGTAPKLLIYGDNNRPSGVPDRFSGSKSGTSASLAITGLQAEDEADYYCQSYDTSLSGLWVFGGGTRLTVL
B2: BD55-5233 (protein)
chain 1: EVQLLESGGGLVQPGGSLRLSCAASGFTFSRSSMGWVRQAPGKGLEWVSTISEDGYTPYYADSVKGRFTISRDNSENRLFLQMNGLRAEDTALYYCAKDVDFDKWRQTCFDSWGQGALVTVSS
chain 2: QSVLTQPPSVSGAPGQRVTISCTGSNSNIGAGYDVHWYQQLPGTAPKLLIYGNNNRPSGVPDRFSGSKSGTSASLAITGLQAEDEADYYCQSYDSSLNVLYVFGTGTRVTVL
B3: BD55-5238 (protein)
chain 1: QEQLVESGGGVVQPGRSLRLSCAASGLTFSSYAMHWVRQAPGKGLEWVAVIWYNGLKKYYADSVKGRFTISRDNYKNTAYLQMSSLRAEDTAVYYCAREGGGDILTGNEFEFWGQGTLVTVSS
chain 2: QSVLTQPPSVSGAPGQTVTISCTGGSSNTGAGYDVHWYQQLPGTAPKLLIFANKNRPSGVPDRFSGSKSGTSASLSITGLQAEDEGDYYCQSYDSSLSGWVFGGGTKVTVL
B4: BD55-5250 (protein)
chain 1: QVQLVQSGAEVKKPGASVKVSCKASGYTFTSNAIHWVRQAPGQRLEWMGWIMADNGYTKYSENFQGRVTITRDTSASTVYMEVSSLRSGDTAVYYCAREGSMWYSTYFDHWGQGTLVTVSS
chain 2: DIQMTQSPSSLSASVGDRVTITCRASQSISSYLTWYQQKSGTAPKLLIYAASSLQSGVPSRFSGSGSGTDFTLTISSLQPEDFATYYCQQSYTDPFTFGPGTKVDFK
B5: BD55-5251 (protein)
chain 1: QITLKESGPALVKPTQTLTLTCTFSGFSLSSNGVGVGWIRQSPGKALEWLALIYWDDDKRYTPSLKKRLTVTKDTSKNQVVLTMTNMDPVDTATYYCAHMARPRGLFINPSWFDPWGQGTLVTVSS
chain 2: QSVLTQPPSASGTPGQRVTISCSGSSSNIGSNTIDWYQQLPGTAPRLLIYGHDLRPSGVPDRFSGSQSGTSASLVISGLQSEDEADYYCAAWDDSLNGPVFGGGTKLTVL
B6: BD55-1036 (protein)
chain 1: QITLKESGPTLVKPTQTLTLTCTFSGFSLTTPGVGMGWIRQPPSQALELLALIYWDGDKRYSPSLKNRVTITRDTSKNQLVLTVTNVDPVDTATYYCAHTSNTPTTPAGLYFNTWGQGTRVTVSS
chain 2: QSALTQPASVSGSPGQSITISCSATNSDFGGHNIVSWYQQHPGKAPKLMIYDVTNRPSGVSNRFSGSKSGNTASLTISGLQAEDEADYYCSSYTDFVIFGGGTKLTVL

target: SARS-CoV-2 Omicron BA.1 spike pseudovirus; test: pseudovirus neutralization IC50; higher = weaker neutralization
Description: (§1)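 Single-round VSV luciferase pseudovirus mixed with antibody dilutions for 1 h and put on Huh-7 cells for about a day; IC50 from the dose curve.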

B1 and B2 cannot be ordered by “pseudovirus neutralization IC50” value: over 10 µg/mL for the first, over 10 µg/mL for the second.

B3 and B4 cannot be ordered by “pseudovirus neutralization IC50” value: over 10 µg/mL for the first, over 10 µg/mL for the second.

Compared with B5, B6 is 100-fold lower in “pseudovirus neutralization IC50” value: 8.9 µg/mL for the first, 0.0881 µg/mL for the second.

target: SARS-CoV-2 Omicron BA.2 spike pseudovirus; test: as above
Description: as §1

B1 and B2 cannot be ordered by “pseudovirus neutralization IC50” value: over 10 µg/mL for the first, over 10 µg/mL for the second.

B3 and B4 cannot be ordered by “pseudovirus neutralization IC50” value: over 10 µg/mL for the first, over 10 µg/mL for the second.

Going from B5 to B6, the “pseudovirus neutralization IC50” value falls from 6.31 µg/mL to 0.00361 µg/mL (1700-fold).

target: SARS-CoV-2 Omicron BA.2.75 spike pseudovirus; test: as above
Description: as §1

B1 and B2 cannot be ordered by “pseudovirus neutralization IC50” value: over 10 µg/mL for the first, over 10 µg/mL for the second.

B3 and B4 cannot be ordered by “pseudovirus neutralization IC50” value: over 10 µg/mL for the first, over 10 µg/mL for the second.

Compared with B5, B6 is 150-fold lower in “pseudovirus neutralization IC50” value: 8.72 µg/mL for the first, 0.0592 µg/mL for the second.

target: SARS-CoV-2 Omicron BA.5 spike pseudovirus; test: as above
Description: as §1

B1 and B2 cannot be ordered by “pseudovirus neutralization IC50” value: over 10 µg/mL for the first, over 10 µg/mL for the second.

B3 and B4 cannot be ordered by “pseudovirus neutralization IC50” value: over 10 µg/mL for the first, over 10 µg/mL for the second.

Going from B5 to B6, the “pseudovirus neutralization IC50” value falls from 3.62 µg/mL to 0.00541 µg/mL (670-fold).

target: SARS-CoV-2 Omicron BQ.1.1 spike pseudovirus; test: as above
Description: as §1

B1 and B2 cannot be ordered by “pseudovirus neutralization IC50” value: over 10 µg/mL for the first, over 10 µg/mL for the second.

B3 and B4 cannot be ordered by “pseudovirus neutralization IC50” value: over 10 µg/mL for the first, over 10 µg/mL for the second.

B5 and B6 cannot be ordered by “pseudovirus neutralization IC50” value: over 10 µg/mL for the first, over 10 µg/mL for the second.

target: SARS-CoV-2 Omicron XBB spike pseudovirus; test: as above
Description: as §1

B1 and B2 cannot be ordered by “pseudovirus neutralization IC50” value: over 10 µg/mL for the first, over 10 µg/mL for the second.

B3 and B4 cannot be ordered by “pseudovirus neutralization IC50” value: over 10 µg/mL for the first, over 10 µg/mL for the second.

B5 and B6 cannot be ordered by “pseudovirus neutralization IC50” value: over 10 µg/mL for the first, over 10 µg/mL for the second.

target: SARS-CoV-2 early D614G spike pseudovirus; test: as above
Description: as §1

First: B1
Second: B2
The “pseudovirus neutralization IC50” value of the first is 4.1-fold higher: 2.08 µg/mL for the first, 0.512 µg/mL for the second.

Going from B3 to B4, the “pseudovirus neutralization IC50” value rises from 0.219 µg/mL to 1.63 µg/mL (7.4-fold).

Compared with B5, B6 is 830-fold lower in “pseudovirus neutralization IC50” value: 0.832 µg/mL for the first, 0.001 µg/mL for the second.
